Source: article doi:10.1101/2023.06.06.543969 (bioRxiv, 2023)

Target: influenza hemagglutinin (HA) from H1N1 A/California/07/2009 (Influenza A virus H1N1 …, UniProt C3W5X2, biotinylated)
Assay: BLI
Details: both partners purified

B1: 5J8 Fab VL D50Y (Fab, V domains shown)
VH: EVQLVESGPGLVKPSDILSLTCAVSGYSISSNYYWGWIRQPPGKGLEWIGSIYHSGSTYYKPSLESRLGISVDTSKNQFSLKLSFVSAADTAVYYCARHVRSGYPDTAYYFDKWGQGTLVTVSS
VL: SYVLTQPPSVSVAPGETARISCGGNNIGTKVLHWYQQTPGQAPVLVVYYDSDRPSGIPERFSGSNSGNTATLTISRVEVGDEADYYCQVWDISTDQAVFGGGTKLTVL
**Q.** Does B1 bind?
**A.** no binding (tested: 300 nM)
